Anti-infective test results gathered from many reports (values: NIAID ChemDB through PubChem).

All rows: whole-cell or culture tests; species: Aspergillus niger; method: broth dilution; measure: MIC

An empty or dashed field is not shown. Two numbers with a dash give a range or band. Rows are shuffled and stem from different studies.

compound,strain or isolate,setting,value
COc1cc(/C=C/C(C)=O)ccc1O,MTCC 218,,781 µM
O=C(CSc1nnc(-c2ccc(N=Cc3cccs3)cc2)o1)Nc1ccccc1[N+](=O)[O-],MTCC 282,,500 µg/mL
Cc1ccc(C2C(Cl)C(=O)N2NC(=O)c2cnc3c(ccc4[nH]c(Cl)cc(C)c43)c2=O)cc1,,,>1000 µg/mL
Nc1[nH]c(=O)ncc1F,,,6.3 µg/mL
C[C@H]1[C@H](O)[C@@H](C)/C=C/C=C/C=C/C=C/C=C/C=C/C=C/[C@H](O[C@@H]2O[C@H](C)[C@@H](O)[C@H](N)[C@@H]2O)C[C@@H]2O[C@](O)(C[C@@H](O)C[C@@H](O)CC[C@H](O)[C@@H](O)C[C@@H](O)CC(=O)O[C@H]1C)C[C@H](O)[C@H]2C(=O)O,NBRC 105649,48 h,1 µg/mL
Cn1ccnc1C(=O)c1nccn1C,,48 h,>512 µg/mL
COc1ccccc1Nc1nc2c(sc(=S)n2-c2ccccc2)c(=O)n1-c1ccccc1OC,MTCC 282,,0.8 µg/mL
O=C(CSc1nnc(-c2ccc(N=Cc3cccs3)cc2)o1)Nc1ccc(Br)cc1,MTCC 282,,1000 µg/mL
O=C(/C=C/c1ccc(OCCOc2ccc(/C=C/C(=O)c3ccccc3)cc2)cc1)c1ccccc1,,,32 µg/mL
Cn1ccnc1Cc1nccn1C,ATCC 16404,48 h,>512 µg/mL
Cc1cc(Cl)[nH]c2ccc3c(=O)c(C(=O)NN4C(=O)C(Cl)C4c4ccc(Cl)cc4)cnc3c12,,,500 µg/mL
CCC1/C=C/C=C/C=C/C=C/C(OC2OC(C)C(O)C(N)C2O)CC2OC(O)(CC(O)CC(O)C(O)/C=C/C(=O)OC1C)CC(O)C2C(=O)O,CGMCC 3.6478,,5.63 µg/mL
c1ccc(C2=NN(c3ccccc3)C(c3ccc(OCCCCCCCCCCOc4ccc(C5CC(c6ccccc6)=NN5c5ccccc5)cc4)cc3)C2)cc1,,,32 µg/mL
O/N=C(\COc1ccccc1)c1ccccc1,ATCC 16404,48 h,>125 µg/mL
COc1ccc(-c2nc3ccccc3c(=O)n2-c2ccc(NS(=O)(=O)C3C(=O)ONN3c3ccc(C)cc3)cc2)cc1[N+](=O)[O-],MTCC 282,,1000 µg/mL
O=C(CSc1nnc(-c2ccc(N=Cc3cccs3)cc2)o1)Nc1ccccc1,MTCC 282,,500 µg/mL
CCCCCCCCCCCCCCCCCCCCCC[C@H](O)CCCCCC,,,250 µg/mL
C[C@H]1[C@H](O)[C@@H](C)/C=C/C=C/C=C/C=C/C=C/C=C/C=C/[C@H](O[C@@H]2O[C@H](C)[C@@H](O)[C@H](N)[C@@H]2O)C[C@@H]2O[C@](O)(C[C@@H](O)C[C@@H](O)CC[C@H](O)[C@@H](O)C[C@@H](O)CC(=O)O[C@H]1C)C[C@H](O)[C@H]2C(=O)O,ATCC 16404,,1–2 µg/mL
Clc1ccc(CO[C@H](Cn2ccnc2)c2ccc(Cl)cc2Cl)c(Cl)c1,,,>48.06 µM
Cn1ccnc1C(CC(=O)O)c1nccn1C,ATCC 16404,48 h,>512 µg/mL
CC1CCC2(OC1)OC1CC3C4CCC5C[C@@H](OC6OC(CO)C(OC7OC(CO)C(O)C(OC8CC(OC9OC(CO)C(O)C(O)C9O)C(O)C(CO)O8)C7OC7OC(CO)C(O)C(O)C7O)C(O)C6O)[C@H](O)C[C@]5(C)C4CC[C@]3(C)C1[C@@H]2C,,,>2 µg/mL
Cc1ccc(N2NOC(=O)C2S(=O)(=O)Nc2ccc(-n3c(-c4ccccc4[N+](=O)[O-])nc4ccccc4c3=O)cc2)cc1,MTCC 282,,250 µg/mL
C[C@@H](c1ncncc1F)[C@](O)(Cn1cncn1)c1ccc(F)cc1F,,,0.25 µg/mL
CC(=O)OC12CCC(C(=O)C1)C1C(=O)NC(=O)C12,DSM 1988,,>100 µM
C[C@H]1[C@H](O)[C@@H](C)/C=C/C=C/C=C/C=C/C=C/C=C/C=C/[C@H](O[C@@H]2O[C@H](C)[C@@H](O)[C@H](N)[C@@H]2O)C[C@@H]2O[C@](O)(C[C@@H](O)C[C@@H](O)CC[C@H](O)[C@@H](O)C[C@@H](O)CC(=O)O[C@H]1C)C[C@H](O)[C@H]2C(=O)O,16888,,0.03 µg/mL
Cc1ccc(N2NOC(=O)C2S(=O)(=O)Nc2ccc(-n3c(-c4cccc(Br)c4)nc4ccccc4c3=O)cc2)cc1,MTCC 282,,1000 µg/mL
CCC(C)CC(C)CCCCCCCCC(=O)N[C@H]1C[C@@H](O)[C@H](NCCN)NC(=O)[C@@H]2[C@@H](O)CCN2C(=O)[C@H]([C@H](O)CCN)NC(=O)[C@H]([C@H](O)[C@@H](O)c2ccc(O)cc2)NC(=O)[C@@H]2C[C@@H](O)CN2C(=O)[C@H]([C@@H](C)O)NC1=O,ND254,,0.125 µg/mL
COc1ccc(NC2=C(Cl)C(=O)c3nc(C)sc3C2=O)cc1,KCTC 1231,,1.6 µg/mL
Cc1cc(Cl)[nH]c2ccc3c(=O)c(C(=O)NN4C(=O)C(Cl)C4c4cccc([N+](=O)[O-])c4O)cnc3c12,,,>1000 µg/mL
O=C(CSc1nnc(-c2ccc(N=Cc3cccs3)cc2)o1)Nc1ccc(F)cc1,MTCC 282,,1000 µg/mL
Cc1nc2c(s1)C(=O)C(Nc1ccc(C#N)cc1)=C(Cl)C2=O,KCTC 1231,,3.2 µg/mL
O=C(COc1cccc(Cl)c1)c1ccccc1,ATCC 16404,72 h,>125 µg/mL
Cc1ccc(NC(=O)CSc2nnc(-c3ccc(N=Cc4cccs4)cc3)o2)c(C)c1,MTCC 282,,250 µg/mL
Cc1nc2c(s1)C(=O)C(Nc1ccc(C)c(C)c1)=C(Cl)C2=O,KCTC 1231,,1.6 µg/mL
Cc1ccc(-c2csc(NS(=O)(=O)C3C(=O)ONN3c3ccc(C)cc3)n2)cc1,MTCC 282,,250 µg/mL
Cc1cc(Cl)[nH]c2ccc3c(=O)c(C(=O)NN=Cc4cccc([N+](=O)[O-])c4O)cnc3c12,,,500 µg/mL
O=C(Nc1nc2ccccc2s1)c1cn[nH]c1C(=O)c1ccc(Cl)cc1,,,1.25 µg/mL
CCOC(=O)c1c(N)oc2ccc(O)cc12,KCTC 1231,,25 µg/mL
CC(=O)OC12CCC(C(=O)C1)C1C(=O)N(CCCCN3CCN(c4ncccn4)CC3)C(=O)C12,DSM 1988,,>100 µM
COc1ccccc1OCC(=O)c1ccccc1,ATCC 16404,72 h,>125 µg/mL
c1ccc(C2=NN(c3ccccc3)C(c3ccc(OCCCCOc4ccc(C5CC(c6ccccc6)=NN5c5ccccc5)cc4)cc3)C2)cc1,,,6 µg/mL
Cc1ccc(N2NOC(=O)C2S(=O)(=O)Nc2nc3c([N+](=O)[O-])cccc3s2)cc1,MTCC 282,,1000 µg/mL
Cc1cc(Cl)[nH]c2ccc3c(=O)c(C(=O)NN4C(=O)C(Cl)C4c4ccccc4)cnc3c12,,,>1000 µg/mL
COC(=O)c1c(N)oc2c(C)c(C)c(O)c(Sc3cccc(C)c3)c12,KCTC 1231,,25 µg/mL
C[C@@H](c1ncncc1F)[C@](O)(Cn1cncn1)c1ccc(F)cc1F,ATCC 16404,,1 µg/mL
c1ccc(C2=NN(c3ccccc3)C(c3ccc(OCCCOc4ccc(C5CC(c6ccccc6)=NN5c5ccccc5)cc4)cc3)C2)cc1,,,16 µg/mL
Cc1[nH]cnc1C(=O)NN=C1SC(CC(=O)O)C(=O)N1c1ccc(F)cc1,UFPEDA 2003,,350 µg/mL
CC(=O)OC12CCC(C(=O)C1)C1C(=O)N(CCCN3CCN(c4ncccn4)CC3)C(=O)C12,DSM 1988,,>100 µM
COc1ccc(NC(=O)CSc2nnc(-c3ccc(N=Cc4cccs4)cc3)o2)cc1,MTCC 282,,1000 µg/mL
Cc1onc(-c2ccccc2Cl)c1C(=O)N[C@@H]1C(=O)N2[C@@H]1SC(C)(C)[C@@H]2C(=O)O,ATCC 16404,24 h,>512 µg/mL

Repeating the final 4 entries:

compound | strain or isolate | setting | value
Cc1[nH]cnc1C(=O)NN=C1SC(CC(=O)O)C(=O)N1c1ccc(F)cc1 | UFPEDA 2003 |  | 350 µg/mL
CC(=O)OC12CCC(C(=O)C1)C1C(=O)N(CCCN3CCN(c4ncccn4)CC3)C(=O)C12 | DSM 1988 |  | >100 µM
COc1ccc(NC(=O)CSc2nnc(-c3ccc(N=Cc4cccs4)cc3)o2)cc1 | MTCC 282 |  | 1000 µg/mL
Cc1onc(-c2ccccc2Cl)c1C(=O)N[C@@H]1C(=O)N2[C@@H]1SC(C)(C)[C@@H]2C(=O)O | ATCC 16404 | 24 h | >512 µg/mL